Results of unrelated studies side by side (data: NIAID ChemDB).

Shared fields: whole-cell or culture tests; species: Mycobacterium tuberculosis

Inhibition is in % at the dose shown (toxicity tests: loss of growth or viability).

smiles | mutations | cell line | dose | method | conditions | strain or isolate | measure | result
CCCNC(=O)N1C(=O)c2ccccc2S1(=O)=O | - | - | - | BACTEC | - | H37Rv | MIC bound | >12.5 µg/mL
C/C=C1/C(=O)O[C@]23C=C[C@@H]4C(C(=O)OC)=CO[C@H](O[C@@H]12)[C@@H]43 | - | - | - | MTT | - | MDR2 clinical isolate | MIC | 2 µg/mL
COc1ccc(CC(N=Cc2ccc(O)cc2)C(=O)N[C@H]2[C@@H](O)[C@H](n3cnc4c(N(C)C)ncnc43)O[C@@H]2CO)cc1 | - | - | 6.25 µg/mL | resazurin | - | H37Rv | inhibition | 99%
CC1CN(c2c(F)cc3c(=O)c(C(=O)O)cn(C4CC4)c3c2F)CC(C)N1 | - | - | - | - | - | CSU11 | MIC | ≤0.125 µg/mL
CC(=O)Nc1ccc(/C=N/NC(N)=S)cc1 | - | - | - | - | - | Isolate C drug-resistant | MBC | 50 µg/mL
O=C(/C=C/c1ccc(F)cc1Cl)c1ccccc1 | - | - | - | resazurin | 7 d | H37Rv | MIC | 32 µg/mL
C/C=C/c1ccc2oc(-c3ccc4c(c3)OCO4)c(C)c2c1 | - | - | - | resazurin / absorbance | - | H37Rv | MIC | 250 µg/mL
CO[C@H]1/C=C/O[C@@]2(C)Oc3c(C)c(O)c4c(O)c(c(/C=N/N5CCN(C/C=C/c6ccccc6)CC5)c(O)c4c3C2=O)NC(=O)/C(C)=C\C=C\[C@H](C)[C@H](O)[C@@H](C)[C@@H](O)[C@@H](C)[C@H](OC(C)=O)[C@@H]1C | - | - | - | - | - | 33 (rifampin-resistant) | MBC | 0.2 µg/mL
NNC(=O)c1ccncc1 | - | - | - | - | - | Isolate 12 | MIC | >32 µg/mL
c1ccc(/C(=N/Nc2ccc3ccccc3n2)c2ccccn2)cc1 | - | - | - | BACTEC | - | H37Rv | MIC bound | ≤12.5 µg/mL
CO[C@H]1/C=C/O[C@@]2(C)Oc3c(C)c(O)c4c(=O)c(c5oc6cc(N7CCN(C(C)C)CC7)cc(=O)c6nc5c4c3=C2O)NC(=O)/C(C)=C\C=C\[C@H](C)[C@H](O)[C@@H](C)[C@@H](O)[C@@H](C)[C@H](OC(C)=O)[C@@H]1C | - | - | - | - | - | 2219 (rifampin-resistant) | MIC | 0.2 µg/mL
COc1ccc(C(=O)/C=C/c2ccc(F)cc2)cc1F | - | - | - | resazurin | 21 d | H37Rv | MIC | 128 µg/mL
NNC(=O)c1ccncc1 | Isoniazid-resistant | - | - | resazurin / absorbance | - | Clinical isolate 17 | MIC | 2 µg/mL
NC[C@H]1O[C@H](O[C@H]2[C@H](O)[C@@H](O[C@H]3O[C@H](CO)[C@@H](O)[C@H](N)[C@H]3O)[C@H](N)C[C@@H]2N)[C@H](O)[C@@H](O)[C@@H]1O | - | - | - | - | - | Isolate 9 | MIC | 32 µg/mL
CC(=O)NC[C@H]1CN(c2ccc(N3CCN(c4ccc([N+](=O)[O-])s4)CC3)c(F)c2)C(=O)O1 | - | - | - | - | - | SGPGI | MIC | 0.25 µg/mL
O=c1oc2ccccc2c(O)c1C1=NNC(c2ccc(O)cc2O)C1 | Isoniazid-resistant | - | - | agar | - | INHR-MTB | MIC90 | >6.25 µg/mL
CC1(C)Oc2ccc3ccc(=O)oc3c2C(O)C1O | - | - | - | BACTEC | - | H37Rv | MIC | ≥12.5 µg/mL
O=c1oc2ccc(Br)cc2cc1-c1cs/c(=N/N=C/c2ccc(F)cc2)n1C1CCCCC1 | - | - | - | - | - | H37Rv | MIC | >6.25 µg/mL
O=C(CSc1nnc(-c2ccccn2)s1)N/N=c1/scc(-c2ccccc2)n1-c1ccc(Cl)cc1 | - | - | - | - | - | Clinical isolate 190 | MIC | 40 µg/mL
O=C(Nc1ccc(C(F)(F)F)cc1)c1cc(Cl)ccc1OP(=O)(c1ccccc1)c1ccccc1 | - | - | - | - | 21 d | 234/2005 | MIC | 1 µM
NNC(=O)c1ccncc1 | - | - | - | agar | - | H37Rv | MIC90 | 0.73 µg/mL
NNC(=O)c1ccncc1 | - | - | - | resazurin | - | M16 | MIC | 2 µg/mL
Cc1cc2c(=O)c3ccccc3oc2c(C(=O)O)c1C | - | - | - | BACTEC | - | H37Rv | MIC bound | >12.5 µg/mL
CCOc1cc2oc3cc(O)c(CCC(C)C)c(O)c3c(=O)c2c(CCC(C)C)c1OC | - | - | - | resazurin | - | M27 | MIC | 1.56 µg/mL
O=C1OC2CC3CC2C1C3C(=O)N1CCCCC1 | - | - | 12.5 µg/mL | BACTEC | - | H37Rv | inhibition | 10%
Cc1cccc(-c2cs/c(=N/NC(=O)CSc3nnc(-c4ccccn4)s3)n2-c2ccccc2)c1 | - | - | - | - | - | Clinical isolate 190 | MIC | >80 µg/mL
CCOc1ccc2c(N/N=C/c3ccc(N(CC)CC)cc3)cc(C)nc2c1 | - | VERO | 12.5 µg/mL | - | - | H37Rv | inhibition | 100%
NC(Cc1ccc(O)cc1)C(=O)N/N=C/c1ccc2c(c1)OCO2 | - | - | 12.5 µg/mL | BACTEC | - | H37Rv | inhibition | -21%
COc1ccc2c(NN)cc(C)nc2c1 | - | VERO | 12.5 µg/mL | - | - | H37Rv | inhibition | 94%
Cc1ccc(/C=N/N=c2/scc(-c3cc4cc(Br)ccc4oc3=O)n2C2CCCCC2)cc1 | - | - | - | - | - | H37Rv | EC50 | >6.25 µg/mL
COc1cc2oc3cc(O)c(O)c(CCC(C)C)c3c(=O)c2c(O)c1CCC(C)C | - | - | - | resazurin | - | H37Ra | MIC | 25 µg/mL
COc1ccc(/C=N/Nc2ccnc3ccc(C4CCCCC4)cc23)c2ccccc12 | - | VERO | 12.5 µg/mL | - | - | H37Rv | inhibition | 100%
NC(=O)c1cnccn1 | - | - | - | - | - | ATCC 27294 niacin-positive | MIC | 32 µg/mL
NNC(=O)c1ccncc1 | - | - | - | - | - | Isolate UT3174 (deletion) | MIC | >256 µg/mL
NNC(=O)c1ccncc1 | - | - | - | - | - | CSU11 | MIC | 2 µg/mL
Nc1ccc(C(=O)O)c(O)c1 | - | - | - | - | - | Clinical isolate 4 | MIC | 1 µg/mL
O=C1c2cc(Br)ccc2OP(=O)(c2ccccc2)N1c1ccc(C(F)(F)F)cc1 | - | - | - | - | 21 d | Praha 1 | MIC | 1 µM
Cc1cc(=O)[nH]c(NNC(=O)c2ccc(Cl)cc2)n1 | - | - | - | BACTEC | - | H37Rv | MIC bound | >12.5 µg/mL
COc1c(O)cc2oc3cc(O)c(CCC(C)C)c(O)c3c(=O)c2c1CCC(C)C | MDR | - | - | resazurin | - | M-4 | MIC | 1.56 µg/mL
CC1COc2c(N3CCN(C)CC3)c(F)cc3c(=O)c(C(=O)O)cn1c23 | - | - | - | - | - | H37Rv | MIC | 1 µg/mL
NC(=O)c1cnccn1 | - | - | - | - | - | T494 | MIC | >2048 µg/mL
O=C(/C=C/c1ccc(C(F)(F)F)cc1)c1c(O)c2ccccc2oc1=O | - | - | - | agar | - | H37Rv | MIC90 | 6.12 µg/mL
O=C(/C=C/c1ccc(F)cc1Cl)c1ccc(F)cc1 | - | - | - | MTT | 21 d | H37Rv | MIC | 32 µg/mL
CC1C(C(=O)O)C(c2ccco2)=NN1c1ccccc1 | - | - | 6.25 µg/mL | - | - | H37Rv | inhibition | 2%
O=C(CSc1nnc(-c2ccccn2)s1)N/N=c1/scc(-c2ccccc2)n1-c1ccc([N+](=O)[O-])cc1 | - | - | - | - | - | H37Rv | MIC | 40 µg/mL
CCOC(=O)C1=C(Nc2ccc(Cl)c(Cl)c2)OC/C1=N\NC(=O)Cc1ccccc1 | - | - | 12.5 µg/mL | BACTEC | - | H37Rv | inhibition | 11%
C[C@H]1COc2c(N3CCN(C)CC3)c(F)cc3c(=O)c(C(=O)O)cn1c23 | - | - | - | - | - | Isolate 13 | MIC | 0.25 µg/mL
CCCCc1ccc2nccc(N/N=C/c3ccc(OC)c4ccccc34)c2c1 | - | VERO | - | - | - | H37Rv | MIC | 6.25 µg/mL
O=c1[nH]c(Nc2nc3ccccc3[nH]2)nc(O)c1-c1ccccc1 | - | - | - | BACTEC | - | H37Rv | MIC bound | >12.5 µg/mL
Cc1cc(NN)c2c(Cl)cc(Cl)cc2n1 | - | VERO | 12.5 µg/mL | - | - | H37Rv | inhibition | 87%
O=C1c2cc(Cl)ccc2OP(=O)(c2ccccc2)N1c1ccc(C(F)(F)F)cc1 | - | - | - | - | 14 d | Praha 4 | MIC | 1 µM
CC1=NN(C(=O)c2ccncc2)C(=O)C1N=Nc1cccc(Cl)c1Cl | - | - | 6.25 µg/mL | resazurin | - | H37Rv | inhibition | 2%
O=C1c2cc(Cl)ccc2OP(=O)(c2ccccc2)N1c1ccc(Cl)c(Cl)c1 | - | - | - | - | 7 d | My 331/88 | MIC | 2 µM
Cc1ccccc1-n1c(-c2ccccc2)cs/c1=N/NC(=O)CSc1nnc(-c2ccccn2)s1 | - | - | - | - | - | H37Rv | MIC | >80 µg/mL
O=C(Nc1ccc(Br)cc1)c1cc(Cl)ccc1OP(=O)(OCc1ccccc1)OCc1ccccc1 | - | - | - | - | 14 d | My 331/88 | MIC | 16 µM
CO[C@H]1/C=C/O[C@@]2(C)Oc3c(C)c(O)c4c(O)c(c(/C=N/N5CCN(C)CC5)c(O)c4c3C2=O)NC(=O)/C(C)=C\C=C\[C@H](C)[C@H](O)[C@@H](C)[C@@H](O)[C@@H](C)[C@H](OC(C)=O)[C@@H]1C | - | - | - | - | - | Clinical isolate 9 | MIC | 0.1 µg/mL
NN1CCN(N)C(=O)C1=O | - | - | 12.5 µg/mL | BACTEC | - | H37Rv | inhibition | 0%
NNC(=O)c1ccncc1 | - | - | - | - | - | Clinical isolate 7 | MIC | 2 µg/mL
O=C(Nc1ccccc1)c1ccccc1OP(=O)(Oc1ccccc1)c1ccccc1 | - | - | - | - | 7 d | My 331/88 | MIC | 250 µM
CCOc1ccc2c(N/N=C/c3ccc(OC)c4ccccc34)cc(C)nc2c1 | - | VERO | - | - | - | H37Rv | MIC | 1.56 µg/mL
Nc1nc(N)c(N=Nc2ccc(SCC(=O)O)cc2)c(=O)[nH]1 | - | - | 12.5 µg/mL | BACTEC | - | H37Rv | inhibition | 11%
C[C@@H]1CN(c2c(F)c(N)c3c(=O)c(C(=O)O)cn(C4CC4)c3c2F)C[C@H](C)N1 | - | - | - | - | - | CSU11 | MIC | ≤0.125 µg/mL
CC[C@@H]1CN2CCc3c([nH]c4ccccc34)[C@@H]2C[C@@H]1/C(=C\OC)C(=O)OC | - | - | - | BACTEC | - | H37Rv | MIC bound | >12.5 µg/mL
O=c1oc2ccccc2c(O)c1C1=NN(c2ccccc2)C(c2ccc(C(F)(F)F)cc2)C1 | - | - | - | agar | - | H37Rv | MIC90 | >6.25 µg/mL
NNC(=O)c1ccncc1 | - | - | - | - | - | PR492 | MIC | 0.31 µg/mL
C=C(C)/C=C/[C@]12C[C@H](C)[C@H]3CC[C@](C)(NC)[C@@H](CC[C@H]1C)[C@@H]32 | - | - | 8 µg/mL | - | - | H37Rv | inhibition | 7%
Cc1ccc(/C=N/N=c2/scc(-c3cc4ccccc4oc3=O)n2C2CCCCC2)cc1 | - | - | - | - | - | H37Rv | MIC | >6.25 µg/mL
CCCc1ccc2oc(-c3ccc(O)c(OC)c3)c(C)c2c1 | - | - | - | resazurin / absorbance | - | Clinical isolate 49 | MIC | 3.9 µg/mL
COc1ccc(/C=N/N=c2/scc(-c3cc4ccccc4oc3=O)n2C2CCCCC2)cc1OC | - | - | - | - | - | H37Rv | EC50 | >6.25 µg/mL
Cc1nc(Nc2ccc([N+](=O)[O-])cc2)sc1C(=O)C=Cc1ccc(N(C)C)cc1 | - | - | 6.25 µg/mL | resazurin | - | H37Rv | inhibition | 43%
O=C(CSc1nnc(-c2ccccn2)s1)N/N=c1/scc(-c2ccccc2)n1-c1ccccc1 | - | - | - | - | - | Clinical isolate 190 | MIC | 80 µg/mL
Cc1ccc(C(=O)/C=C/c2ccccc2)cc1 | - | - | - | MTT | 14 d | H37Rv | MIC | 32 µg/mL
CCOC(=O)C1=NN(c2ccccc2)C(=O)C1N=Nc1ccc(S(=O)(=O)Nc2nnc(C)s2)cc1 | - | - | 12.8 µg/mL | BACTEC | - | H37Rv | inhibition | 88%
C=CCOc1cc2oc3cc(O)c(CCC(C)C)c(O)c3c(=O)c2c(CCC(C)C)c1OC | - | - | - | resazurin | - | M11 | MIC | 3.12 µg/mL
COc1ccc2ccccc2c1/C=N/Nc1ccnc2cc(Cl)ccc12 | - | VERO | 12.5 µg/mL | - | - | H37Rv | inhibition | 99%
COc1ccccc1/C=N/N=c1\scc(-c2cc3cc(Br)ccc3oc2=O)n1C1CCCCC1 | - | - | - | - | - | H37Rv | MIC | >6.25 µg/mL
O=C(/C=C/c1c(F)cccc1Cl)c1ccccc1 | - | - | - | MTT | 21 d | H37Rv | MIC | 16 µg/mL
NNC(=O)c1ccncc1 | - | - | - | - | - | Pan-susceptible clinical isolate 4 | MIC | 0.06 µg/mL
CN(C)[C@H]1C(=O)C(C(=O)NCN2CCN(C(=N)N=C(N)N)CC2)=C(O)[C@]2(O)C(=O)C3=C(O)c4c(O)cccc4[C@](C)(O)[C@@H]3C[C@H]12 | - | - | 12.8 µg/mL | BACTEC | - | H37Rv | inhibition | 41%
Cc1ccc(C(=O)/C=C/c2ccccc2)c(F)c1 | - | - | - | resazurin | 21 d | H37Rv | MIC | 32 µg/mL
COC(=O)[C@H]1[C@H](O)[C@@H](C)[C@@H](O)[C@](C)(O)/C=C(\C)C2=C3C(=C(C)C(=O)c4c(O)c(c(C)c(OC(C)=O)c43)NC(=O)/C(C)=C/C=C\[C@@H](C)C(O)[C@@H](C)[C@H]1O)OCO2 | - | - | - | - | - | PAS-R | MIC | 0.8 µg/mL
CCN(CC)c1ccc(/C=N/Nc2cc(C)nc3cc(Cl)ccc23)cc1 | - | VERO | 12.5 µg/mL | - | - | H37Rv | inhibition | 100%
CC(=O)Nc1ccc(C(=O)N[C@@H]2C(=O)N3C2SC(C)(C)C3C(=O)O)cn1 | - | - | - | BACTEC | - | H37Rv | MIC bound | >12.5 µg/mL
CC(C)=CCc1c(O)c2c(O)c3c(CC=C(C)C)/c(=C(/C)O)c(=O)cc3oc2cc1=O | - | - | - | resazurin | - | H37Ra | MIC | 6.25 µg/mL

ECn: concentration that inhibits the pathogen or its effect by n%. An empty or dashed field is not shown. MIC50, MIC90 and the like: level of inhibition, or share of isolates inhibited. Lines come from different laboratories, so protocols vary. MIC bound comes from a single tested concentration.